In patent US20170217976A1, “6-(AMINO ACID)-MORPHINAN DERIVATIVES IN COMBINATION WITH PERMEATION […] FOR USE AS AN ORALLY, […], TRA[…] NASALLY AD[…]” (C[…], priority 2014, published 2017) one finds Ki data, which are given here for one compound.

Chains of the proteins cited; added tags and fusions are not shown.
UniProt P41144, whole entry: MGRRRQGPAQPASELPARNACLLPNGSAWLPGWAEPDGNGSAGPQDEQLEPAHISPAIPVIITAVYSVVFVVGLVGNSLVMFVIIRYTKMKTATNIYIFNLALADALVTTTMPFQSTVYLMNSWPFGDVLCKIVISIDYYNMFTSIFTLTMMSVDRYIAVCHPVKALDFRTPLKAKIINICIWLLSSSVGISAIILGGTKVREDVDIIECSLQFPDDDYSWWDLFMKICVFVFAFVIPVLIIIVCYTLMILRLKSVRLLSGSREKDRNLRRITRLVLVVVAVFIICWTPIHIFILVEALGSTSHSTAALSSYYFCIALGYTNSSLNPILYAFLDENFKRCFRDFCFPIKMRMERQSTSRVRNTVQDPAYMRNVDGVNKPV

For orientation: Ki means the dissociation constant of the complex between target and ligand, obtained from inhibition or displacement.

In this test the target is T1, KOR (Cavia porcellus, UniProt P41144).
T1 construct: from tissue
The test is described as follows: Opioid receptor binding, KOR, guinea pig brain membranes.

Like-named read-outs stand apart in the source and are kept apart here.

For the compound `CO[C@@]12CCC(=O)[C@@H]3Oc4c(O)ccc5c4[C@@]31CCN(C)[C@@H]2C5` [Compound 14-OMO, 14-O-methyloxymorphone, reference compound], the Ki (Table 1-4, guinea pig brain membranes, read-out: Binding Ki KOR) was found to be 10.2 nM and the Ki (in vitro binding assay, guinea pig brain membranes, read-out: Binding Ki (nM) KOR) amounted to 10.2 nM.
